This data set concerns the molecule itself. Put plainly: oligomerization assay (Western blot of high molecular-weight complexes); LLO or its mutants pre-incubated with or without curcumin at 37°C, oligomerization induced in vitro; protocol as in ref. 11; oligomers detected by Western blot with specific antibodies. In general terms: A western blot detects proteins with antibodies after separation by electrophoresis.

B1: listeriolysin O (LLO), wild type (natural protein)
chain: not shown
notes: ATCC19115 and EGD were used in the study; Cloned into pET-21a between NdeI and XhoI; also called WT-LLO
On to B1, for which the binding result is recorded as “binds”.

Source of the values: publication PMC5434164, “Curcumin Promotes the Clearance of Listeria monocytogenes both In Vitro and In Vivo by Reducing Listeriolysin O Oligomers” (Frontiers in Immunology, 2017).
